Measured values from several laboratories, pooled; numbers as filed in NIAID ChemDB.

Common to all: whole-cell or culture tests; species: Mycobacterium bovis

a–b is a range or a potency band. MIC50, MIC90 and the like: level of inhibition, or share of isolates inhibited. ECn is the concentration giving n% inhibition of infection, replication or growth. An empty or dashed field is not shown. Rows are shuffled and stem from different studies.

smiles | endpoint | read by | conditions | strain | result
CC1COc2c(N3CCN(C)CC3)c(F)cc3c(=O)c(C(=O)O)cn1c23 | MIC | - | - | 5 strains | >0.63 µg/mL
COc1nn(-c2cccc(Oc3ccccc3)c2)c(=O)o1 | MIC99 | - | - | - | 10–20 µg/mL
Cc1cc(=O)n([C@@H]2O[C@H](C)C3CNC(=S)OC32)c(=O)[nH]1 | MIC | - | - | BCG | 100 µg/mL
Cc1ccc(-c2cnc3cc4ccccc4cc3n2)cc1 | EC50 | - | - | BCG | 1.2 µM
CCCCCC/C=C/CCc1ccc(O)cc1 | MIC | resazurin | - | BCG | 128 µM
CC(C)CCOc1ccc(NC(=S)Nc2ccc(OCCC(C)C)cc2)cc1 | MIC | - | - | BCG | 0.5 µg/mL
Brc1ccc(-c2cnc3cc4ccccc4cc3n2)cc1 | EC50 | - | - | BCG | <1 µM
CCCCCCC1=CN([C@@H]2O[C@H](CO)[C@@H](O)[C@@H]2O)NN1 | MIC | resazurin | - | BCG | 500 µg/mL
c1ccc(-c2nc3cc4ccccc4cc3nc2-c2ccccc2)cc1 | EC50 | - | - | BCG | 7.7 µM
O=[N+]([O-])c1cn2c(n1)OC[C@@H](OCc1ccccc1)C2 | MIC | - | - | rBCG-lux | 8 µg/mL
CN[C@H](CC(C)C)C(=O)N[C@H]1C(=O)N[C@@H](CC(N)=O)C(=O)N[C@H]2C(=O)N[C@H]3C(=O)N[C@H](C(=O)N[C@H](C(=O)O)c4cc(O)cc(O)c4-c4cc3ccc4O)[C@H](O)c3ccc(c(Cl)c3)Oc3cc2cc(c3O[C@@H]2O[C@H](CO)[C@@H](O)[C@H](O)[C@H]2O[C@H]2C[C@](C)(N)[C@H](O)[C@H](C)O2)Oc2ccc(cc2Cl)[C@H]1O | MIC | broth dilution | - | - | 250 µg/mL
CCC1Cn2cc([N+](=O)[O-])nc2O1 | MIC | - | - | rBCG-lux | 1 µg/mL
COC1=C2C(=O)O[C@@]13C[C@@H](C)C=C[C@H]3/C=C/C(=O)[C@@H](C)C[C@@H](C)C2=O | MIC | - | - | - | 40 µg/mL
COc1ccc2[nH]c(=O)c(-c3ccccc3)c(O)c2c1 | MIC90 | luminescence | - | AN5 lux | 9.3 µM
CCCCOc1ccc(NC(=S)Nc2ccc(SCC(C)C)cc2)cc1 | MIC | - | - | BCG | 0.5 µg/mL
CCOC(=O)c1ccc(NC(=O)Nc2ccc3c(c2)C(C)(C)CC(C)(C)S3)cc1 | MIC | - | - | BCG | 20–40 µg/mL
CCCCCCCCC(=O)N[C@@H]1COc2nc([N+](=O)[O-])cn2C1 | MIC | - | - | rBCG-lux | 6 µg/mL
CCOC(=O)c1ccc(NC(=S)Nc2ccc3c(c2)C(C)(C)CC(C)(C)S3)cc1 | MIC | - | - | BCG | 20–40 µg/mL
CCCCCCCCO[C@@H]1COc2nc([N+](=O)[O-])cn2C1 | MIC | - | - | rBCG-lux | 1 µg/mL
C[C@@H]1CN(c2c(F)c(N)c3c(=O)c(C(=O)O)cn(C4CC4)c3c2F)C[C@H](C)N1 | MIC | broth dilution / visual reading | - | ATCC 19210 | 0.1 µg/mL
O=C1CCC(=O)N(O)CCCCCNC(=O)CCC(=O)N(O)CCCCCNC(=O)CCC(=O)N(O)CCCCCN1 | MIC | MTT | - | BCG | >160 µM
NNC(=O)c1ccncc1 | MIC | - | - | BCG (PMV261::KASA) | 0.07 µg/mL
CC1=CC(C)(C)N(C)c2ccc(NC(=S)Nc3ccc([N+](=O)[O-])cc3)cc21 | MIC | - | - | BCG | 20–40 µg/mL
Clc1ccc(-c2cnc3cc4ccccc4cc3n2)cc1 | EC50 | - | - | BCG | <1 µM
CCCCCC#Cc1cn([C@H]2C[C@H](O)[C@@H](CO)O2)c(=O)[nH]c1=O | MIC90 | - | - | - | >100 µg/mL
CCOC(=O)c1ccc(NC(=S)Nc2ccc3c(c2)C(C)(C)CC(C)(C)O3)cc1 | MIC | - | - | BCG | 5–10 µg/mL
COc1cccc2c(O)c(-c3ccccc3)c(=O)[nH]c12 | MIC90 | luminescence | - | AN5 lux | 8.6 µM
CC(=O)NC1Cc2cccc3c2n(c(=O)n3C/C=C\Cn2cc(C)c(=O)[nH]c2=O)C1 | EC50 | resazurin / absorbance | - | BCG Pasteur | >160 µg/mL
O=C(O)CCCCCCCCCCCCC1C=CCC1 | MIC | GFP | - | BCG Pasteur | 2.36 µM
CCCCCCCCCCCCc1ccc(NC(=O)C2=CCN(C)[C@@H]([C@H](O[C@@H]3O[C@H](CN)[C@@H](O)[C@H]3O)[C@H]3O[C@@H](n4ccc(=O)[nH]c4=O)[C@H](O)[C@@H]3O)C(=O)N2C)cc1 | MIC | - | - | Ravenel | 3.13 µg/mL
CCOC(=O)CCCCCCCCCCCC[C@H]1C=CCC1 | MIC | GFP | - | BCG Pasteur | 0.26 µM
C[C@]1(COc2ccc(N3CCC(Oc4ccc(OC(F)(F)F)cc4)CC3)cc2)Cn2cc([N+](=O)[O-])nc2O1 | MIC | - | - | BCG/TOKYO | 0.012 µg/mL
Cc1c(C)c(C)[c-](C)c1C.N[C@H](C(=O)[O-])c1ccccc1.[Cl][Rh+2] | MIC | - | - | ATCC 35745 | 7 µg/mL
COc1ccnc2[nH]cc(C(=O)C(=O)N3CCN(C(=O)c4ccccc4)C[C@H]3C)c12 | EC50 | - | pseudotyped | BCG | 0.001 µM
Cc1c(O)c2ccccc2[nH]c1=O | MIC90 | luminescence | - | AN5 lux | 9.5 µM
COc1ccc2c(c1NC(=S)Nc1ccc([N+](=O)[O-])cc1)C(C)(C)COC2(C)C | MIC | - | - | BCG | 20–40 µg/mL
CCCCCCCCOC1CCn2cc([N+](=O)[O-])nc2OC1 | MIC | - | - | rBCG-lux | 5 µg/mL
Cc1cn(C/C=C\CN2c3cccc4c3N(CCC4)S2(=O)=O)c(=O)[nH]c1=O | EC50 | resazurin / absorbance | - | BCG Pasteur | >160 µg/mL
CCc1cc(C(N)=S)ccn1 | MIC | - | - | BCG (PMV261) | 2 µg/mL
CCCCCCCCOCCn1cc([N+](=O)[O-])nc1OC | MIC | - | - | rBCG-lux | ≥25 µg/mL
c1ccc2cc3nc4c(nc3cc2c1)CCCC4 | EC50 | - | - | BCG | 12 µM

Repeating the first 4 entries:

{"smiles": "CC1COc2c(N3CCN(C)CC3)c(F)cc3c(=O)c(C(=O)O)cn1c23", "endpoint": "MIC", "strain": "5 strains", "result": ">0.63 µg/mL"}
{"smiles": "COc1nn(-c2cccc(Oc3ccccc3)c2)c(=O)o1", "endpoint": "MIC99", "result": "10–20 µg/mL"}
{"smiles": "Cc1cc(=O)n([C@@H]2O[C@H](C)C3CNC(=S)OC32)c(=O)[nH]1", "endpoint": "MIC", "strain": "BCG", "result": "100 µg/mL"}
{"smiles": "Cc1ccc(-c2cnc3cc4ccccc4cc3n2)cc1", "endpoint": "EC50", "strain": "BCG", "result": "1.2 µM"}